± gives the expanded uncertainty stated by the source.
Tests used:
[1] = 101 kPa, Liquid; for speed of sound: Frequency=1.5 MHz, Sing-around technique in a fixed-path interferometer; for mass density: Vibrating tube method
[2] = refractive index (Na D-line) (dimensionless); settings: 101 kPa, Liquid, Standard Abbe refractometry

CCCCOP(=O)(OCCCC)OCCCC [tributyl phosphate]
Settings	mass density, [1] [kg/m3]	refractive index, [2]	speed of sound, [1] [m/s]
303.15 K	968.39 ± 0.3	1.421 ± 0.0004	1247.4 ± 1.5
308.15 K	964.11 ± 0.3	1.419 ± 0.0004	1230.5 ± 1.5
313.15 K	959.82 ± 0.3	1.4171 ± 0.0004	1213.8 ± 1.5
318.15 K	955.54 ± 0.3	1.4146 ± 0.0004	1197.3 ± 1.5
323.15 K	951.26 ± 0.3	1.4131 ± 0.0004	1181.4 ± 1.5

Source: the NIST ThermoML archive (doi:10.1021/acs.jced.5b00343)
